Tested on: wt HPIV3
Conditions: for HPIV3 viral titer, Day 1 / HPIV3 viral titer, Day 2 / HPIV3 viral titer, Day 3 / HPIV3 viral titer, Day 5 / HPIV3 viral titer, Day 7: HAE apical surface, 1uM peptide at time of infection only, mean +/- SD; for reduction of HPIV3 viral titer in HAE, two days post-infection: single initial dose 1000 nM peptide at infection, 90 min adsorption, vs untreated control wells, 3 replicate samples

Row | SMILES | HPIV3 viral titer, Day 1 | HPIV3 viral titer, Day 2 | HPIV3 viral titer, Day 3 | HPIV3 viral titer, Day 5 | HPIV3 viral titer, Day 7 | reduction of HPIV3 viral titer in HAE, two days post-infection
1 | CC[C@H](C)[C@H](NC(=O)[C@H](CO)NC(=O)[C@H](CC(=O)O)NC(=O)[C@H](CC(C)C)NC(=O)[C@H](CCCCN)NC(=O)[C@H](CCC(N)=O)NC(=O)[C@H](CC(N)=O)NC(=O)[C@H](CO)NC(=O)[C@H](CCCNC(=N)N)NC(=O)[C@H](CCCNC(=N)N)NC(=O)[C@@H](NC(=O)[C@H](Cc1c[nH]c2ccccc12)NC(=O)[C@H](CCC(=O)O)NC(=O)[C@H](CCCCN)NC(=O)[C@H](CO)NC(=O)[C@H](CCC(=O)O)NC(=O)[C@H](CCC(=O)O)NC(=O)[C@H](CC(C)C)NC(=O)[C@H](CC(=O)O)NC(=O)[C@H](CO)NC(=O)[C@H](CCCCN)NC(=O)[C@H](C)NC(=O)[C@H](CCCCN)NC(=O)[C@H](CC(N)=O)NC(=O)[C@H](CC(C)C)NC(=O)[C@@H](NC(=O)[C@@H](NC(=O)[C@H](CO)NC(=O)[C@@H](NC(=O)[C@H](CC(=O)O)NC(=O)[C@@H](NC(=O)[C@@H]1CCCN1C(=O)[C@H](CC(=O)O)NC(=O)[C@H](CC(C)C)NC(=O)[C@H](C)NC(=O)[C@@H](NC(C)=O)C(C)C)[C@@H](C)CC)[C@@H](C)CC)[C@@H](C)CC)C(C)C)[C@@H](C)CC)C(=O)NCC(=O)N[C@@H](CO)C(=O)NCC(=O)N[C@@H](CO)C(=O)NCC(=O)N[C@@H](CSCC(=O)NCCOCCOCCOCCOCCC(=O)O[C@H]1CC[C@@]2(C)C(=CC[C@H]3[C@@H]4CC[C@H]([C@H](C)CCCC(C)C)[C@@]4(C)CC[C@@H]32)C1)C(N)=O [V-PEG4-chol] | 0.3+/-0.2 pfu/ ml 103 | 3.8+/-1.6 pfu/ ml 103 | 10 +/-1.9 pfu/ ml 103 | 3.0+/-0.6 pfu/ ml 103 | 11 +/-1.9 pfu/ ml 103 | the same as for untreated control wells
2 | CC[C@H](C)[C@H](NC(=O)[C@H](CO)NC(=O)[C@H](CC(=O)O)NC(=O)[C@H](CC(C)C)NC(=O)[C@H](CCCCN)NC(=O)[C@H](CCC(N)=O)NC(=O)[C@H](CC(N)=O)NC(=O)[C@H](CO)NC(=O)[C@H](CCCNC(=N)N)NC(=O)[C@H](CCCNC(=N)N)NC(=O)[C@@H](NC(=O)[C@H](Cc1c[nH]c2ccccc12)NC(=O)[C@H](CCC(=O)O)NC(=O)[C@H](CCCCN)NC(=O)[C@H](CO)NC(=O)[C@H](CCC(=O)O)NC(=O)[C@H](CCC(=O)O)NC(=O)[C@H](CC(C)C)NC(=O)[C@H](CC(=O)O)NC(=O)[C@H](CO)NC(=O)[C@H](CCCCN)NC(=O)[C@H](C)NC(=O)[C@H](CCCCN)NC(=O)[C@H](CC(N)=O)NC(=O)[C@H](CC(C)C)NC(=O)[C@@H](NC(=O)[C@@H](NC(=O)[C@H](CO)NC(=O)[C@@H](NC(=O)[C@H](CC(=O)O)NC(=O)[C@@H](NC(=O)[C@@H]1CCCN1C(=O)[C@H](CC(=O)O)NC(=O)[C@H](CC(C)C)NC(=O)[C@H](C)NC(=O)[C@@H](NC(C)=O)C(C)C)[C@@H](C)CC)[C@@H](C)CC)[C@@H](C)CC)C(C)C)[C@@H](C)CC)C(=O)NCC(=O)N[C@@H](CO)C(=O)NCC(=O)N[C@@H](CO)C(=O)NCC(=O)N[C@@H](CSCC(=O)O[C@H]1CC[C@@]2(C)C(=CC[C@H]3[C@@H]4CC[C@H]([C@H](C)CCCC(C)C)[C@@]4(C)CC[C@@H]32)C1)C(N)=O [V-chol] | 1.0+/-0.8 pfu/ ml 103 | 3.8+/-0.9 pfu/ ml 103 | 8.5+/-2.7 pfu/ ml 103 | 12 +/-3.0 pfu/ ml 103 | 2.7+/-0.8 pfu/ ml 103 | the same as for untreated control wells
